One substance from US20240115681A1 (priority 2022, published 2024) can be followed below.

This data set relates to recombinant S protein. Also noted: species or system SARS-CoV-2. As to conditions: in vivo.

In the oligonucleotide strings, read from the 5' end, every base follows the letter of its sugar. An asterisk marks phosphorothioate; unmarked linkages are phosphodiester. Other units and linkages are bracketed, terminal groups are in braces. A string of capitals states the bases alone. d = 2'-deoxy (DNA)

Regarding “CpG-2722 (DNA dG*dT*dT*dG*dT*dC*dG*dT*dT*dT*dT*dT*dT*dG*dT*dC*dG*dT*dT)”, the “anti-S protein IgG titer vs vehicle control” value is “significantly higher anti-S protein IgG titer than that induced by the vehicle control”.
